A mixed list of measured activities; the numbers were collected in NIAID ChemDB.

Shared fields: whole-cell or culture tests; organism: Hepatitis C virus

Conditions beyond the fields shown may differ between rows. ECn is the concentration giving n% inhibition of infection, replication or growth. a–b is a range or a potency band. Blank or dashed fields: not listed here.

smiles | endpoint | cells | strain | read by | conditions | value
C=CC1C[C@]1(NC(=O)[C@@H]1C[C@@H](Oc2cc(-c3ccccc3)nc3cc(OC)ccc23)CN1C(=O)[C@@H](NC(=O)OC(C)(C)C)C(C)(C)C)C(=O)NS(=O)(=O)c1cc(Cl)c(Br)s1 | EC50 | Huh7 | BMS | - | - | 0.1–1 µM
CNC(=O)c1c(-c2ccc(F)cc2)oc2cc(-c3cc(COC)on3)c(OC(C)C)cc12 | EC50 | Huh7 | - | replicon | - | <1 µM
Nc1nc(Cl)nc2c1ncn2[C@H]1O[C@H](CO)[C@@H](F)[C@@H]1F | EC90 | Huh7 | - | replicon | - | >10 µM
CCCCCCCCCCCC(=O)OC[C@@]1(N=[N+]=[N-])O[C@@H](n2ccc(N)nc2=O)[C@@H](O)[C@@H]1O | EC50 | Huh7 | - | luciferase | - | 0.619 µM
Fc1cccc(-c2cc3cn(Cc4cn(-c5ccc(Cl)cc5)nn4)ccc-3n2)c1F | EC50 | - | 1b | replicon | - | <100 µM
C=C[C@@H]1C[C@]1(NC(=O)[C@@H]1C[C@@H]2CN1C(=O)[C@H](C(C)(C)C)NC(=O)C[C@@H]1C[C@H]1CCCCCc1nc3ccc(OC)cc3nc1O2)C(=O)NS(=O)(=O)C1CC1 | EC50 | Huh7 | S52 | PCR | - | 0.000035 µM
CC(C)CCn1c(=O)c(C2=NS(=O)(=O)c3ccccc3N2)cc2c(O)cccc21 | EC50 | - | - | replicon | - | 53.8 µM
COC(=O)N[C@H](C(=O)N1C[C@@H](C)C[C@H]1c1ncc(-c2ccc(-c3ccc(-c4cc5[nH]c([C@@H]6C[C@H](C)CN6C(=O)[C@@H](NC(=O)OC)C(C)C)nc5s4)cc3C)cc2)[nH]1)C(C)C | EC50 | Huh 5-2 | - | luciferase | genotype 1b | 0.000008 µM
COC(=O)N[C@H](C(=O)N1CC2(CC2)C[C@H]1c1ncc(-c2ccc3c(c2)C(F)(F)c2cc(-c4ccc5nc([C@@H]6[C@H]7CC[C@H](C7)N6C(=O)[C@@H](NC(=O)OC)C(C)C)[nH]c5c4)ccc2-3)[nH]1)C(C)C | EC50 | HCV replicon cells | genotype 1b | replicon | - | 0.000004 µM
O=C(O)/C=C/c1ccc(NC(=O)C2(NC(=O)c3ccc4c(c3)nc(-c3ccco3)n4C3C[C@H]4CC[C@@H]3C4)CCCC2)cc1 | EC50 | Huh7 | - | - | - | ≤5 µM
CNc1ncnc2c1c(F)cn2[C@H]1O[C@H](CO)[C@@H](O)[C@@]1(C)F | EC90 | CEM | - | replicon | - | >10 µM
Nc1cnn(C[C@H](CO)OCP(=O)(O)O)c(=O)n1 | EC50 | Huh 5-2 | - | cytopathic effect | - | >75 µg/mL
Cc1cc(C)c2c(=O)c3cc(N)c(N4CCN(c5ccccn5)CC4)cc3n(C)c2c1 | EC50 | Huh 5-2 | - | replicon | - | 5 µg/mL
O=c1nc(NO)ccn1[C@@H]1O[C@H](CO)[C@@H](O)[C@H]1O | EC50 | Huh7 replicon | - | - | 4 d | <5 µM
CCOC(=O)[C@H](C)NP(=O)(OC[C@H]1O[C@@H](n2cc(I)c3c(N)ncnc32)[C@](C)(F)[C@@H]1O)Oc1ccccc1 | EC90 | CEM | - | replicon | - | >10 µM
C=CC1C[C@]1(NC(=O)[C@@H]1C[C@@H](Oc2cc(-c3ccccc3)nc3cc(OC)ccc23)CN1C(=O)[C@@H](NC(=O)OC(C)(C)C)C(C)(C)C)C(=O)NS(=O)(=O)c1ccc(-c2cc(C(F)(F)F)nn2C)s1 | EC50 | Huh7 | BMS | - | - | 0.1–1 µM
C[C@@]1(F)[C@H](O)[C@@H](CO)O[C@H]1n1ccc2c(N)nc(N)nc21 | EC90 | CEM | - | replicon | - | >10 µM
COc1cc(Cc2cnc(/N=C3\C(=O)N(CN4CCCC4)c4ccc(F)cc43)nc2N)cc(OC)c1OC | EC50 | Huh7 | - | - | - | <50 µg/mL
O=c1cc(OCc2cccc([N+](=O)[O-])c2)oc2cc(-c3ccccc3)c(OCc3cccc([N+](=O)[O-])c3)c(O)c12 | EC50 | Huh 5-2 | - | luciferase | - | >100 µM
Nc1nc(N2CCOCC2)c2nc(-c3cccnc3)cnc2n1 | EC50 | Huh7 | - | - | - | 0.3–1 µM
CC(C)(C)CCN1C(=O)C(C2=NS(=O)(=O)c3cc(NS(C)(=O)=O)ccc3N2)=C(O)[C@@H]2C3CCC(CC3)[C@@H]21 | EC50 | - | 1b | replicon | - | 0.004 µM
Cc1nc(N(C)C)nc(N[C@@H]2C[C@H](CO)[C@@H](O)[C@H]2O)c1-c1nc2ccccc2s1 | EC50 | Huh7 | 1b | replicon | - | 13 µM
CC(C)(O)CCOc1nc(N)nc2ncc(-c3ccc(F)cc3)nc12 | EC50 | Huh7 | - | - | - | 1–10 µM
OCc1nnc(-c2ccc(N3CCC(Oc4ccccc4C(F)(F)F)CC3)nn2)o1 | EC50 | Huh7 | GT1a | PCR | - | 0.00074 µM
Fc1cccc(-c2[nH]c3cnccc3c2C2CCCCC2)c1F | EC50 | - | 1b | replicon | - | <100 µM
O=c1cc(OCc2cccc(I)c2)oc2cc(-c3ccccc3)c(OCc3cccc(I)c3)c(O)c12 | EC50 | Huh 5-2 | - | luciferase | - | 50 µM
Fc1cccc(-c2cc3cn(Cc4nnc(-c5ccc(Cl)cc5)s4)ccc-3n2)c1F | EC50 | - | 1b | replicon | - | <100 µM
C[C@@]1(F)[C@H](O)[C@@H](CO)O[C@H]1n1cc(C#Cc2ccccc2)c2c(N)ncnc21 | EC90 | CEM | - | replicon | - | >10 µM
O=c1cc(OCc2cccc(F)c2)oc2cc(-c3ccccc3)c(OCc3cccc(F)c3)c(O)c12 | EC50 | Huh 5-2 | - | luciferase | - | 10 µM
COc1cc(Cc2cnc(/N=C3\C(=O)N(CN4CCN(c5cccc(C(F)(F)F)c5)CC4)c4ccc(F)cc43)nc2N)cc(OC)c1OC | EC50 | Huh7 | - | - | - | <50 µg/mL
N=C1Sc2ccccc2C2=NCCCN12 | EC50 | - | H77 | - | - | 11 µM
Cc1nc(N)nc(N[C@@H]2C[C@H](CO)[C@@H](O)[C@H]2O)c1-c1nc2ccccc2s1 | EC50 | Huh7 | 1b | replicon | - | 0.02 µM
CC1=C(C(=O)O[C@H](C)c2ccccc2)CNC(=S)N1 | EC50 | Huh7 | - | ELISA | - | 1–10 µM
OCc1nnc(-c2ccc(N3CC(Oc4ccccc4C(F)(F)F)C3)nn2)o1 | EC50 | Huh7 | GT1b | PCR | 50% human serum | >40 µM
CCOc1nc(N)nc2ncc(-c3ccc(C)cc3)nc12 | EC50 | Huh7 | - | - | - | 1–10 µM
CC1=C(C(=O)OCn2nnc3ccccc32)CNC(=S)N1 | EC50 | Huh7 | - | ELISA | - | <1 µM
Nc1nc(N2CCOCC2)c2nc(-c3ccsc3)cnc2n1 | EC50 | Huh7 | - | - | - | 1–10 µM
O=c1cc(OCc2cccc(C(F)(F)F)c2)oc2cc(-c3ccccc3)c(OCc3cccc(C(F)(F)F)c3)c(O)c12 | EC50 | Huh 5-2 | - | luciferase | - | >100 µM
O=C(OC[C@H]1O[C@@H](OC(=O)c2cc(O)c(O)c(OC(=O)c3cc(O)c(O)c(O)c3)c2)[C@H](OC(=O)c2cc(O)c(O)c(OC(=O)c3cc(O)c(O)c(O)c3)c2)[C@@H](OC(=O)c2cc(O)c(O)c(OC(=O)c3cc(O)c(O)c(O)c3)c2)[C@@H]1OC(=O)c1cc(O)c(O)c(OC(=O)c2cc(O)c(O)c(O)c2)c1)c1cc(O)c(O)c(OC(=O)c2cc(O)c(O)c(O)c2)c1 | EC50 | Huh7.5 | - | luciferase | - | 5.8 µM
Nc1nc(OCC2CC2)c2nc(-c3ccc(F)cc3)cnc2n1 | EC50 | Huh7 | - | - | - | 1–10 µM
C=C[C@H]1C[C@@]1(NC(=O)c1ccc2c(c1)nc(-c1ccoc1)n2C1CCCCC1)C(=O)Nc1ccc(/C=C/C(=O)O)cc1 | EC50 | Huh7 | - | - | - | ≤5 µM
C=C(Cl)COC(=O)C1=C(C)NC(=S)NC1 | EC50 | Huh7 | - | ELISA | - | <1 µM
Nc1ncnc2c1ncn2[C@H]1O[C@H](CO)[C@@H](F)[C@@H]1F | EC90 | Huh7 | - | replicon | - | >10 µM
CCn1cc(C(=O)O)c(=O)c2cc(F)c(N3CCN(CN4C(=O)/C(=N\c5ncc(Cc6cc(OC)c(OC)c(OC)c6)c(N)n5)c5cc(F)ccc54)CC3)cc21 | EC50 | Huh7 | - | - | - | <50 µg/mL
C=CC1C[C@]1(NC(=O)[C@@H]1C[C@@H](Oc2cc(-c3ccccc3)nc3cc(OC)ccc23)CN1C(=O)[C@@H](NC(=O)OC(C)(C)C)C(C)(C)C)C(=O)NS(=O)(=O)c1sc(C)nc1C | EC50 | Huh7 | BMS | - | - | 0.1–1 µM
COc1ccc2c(O[C@@H]3C[C@H]4C(=O)N[C@]5(C(=O)O)C[C@H]5/C=C\CCCCC[C@H](NC(=O)OC5CCCC5)C(=O)N4C3)cc(-c3csc(NC(C)C)n3)nc2c1 | EC50 | Huh7 | WILD TYPE | replicon | - | 0.001 µM
C[C@@H](NC(=O)c1ccc2c(n1)nc(-c1ccoc1)n2C1CCCCC1)C(=O)Nc1ccc(/C=C/C(=O)O)cc1 | EC50 | Huh7 | - | - | - | 5–50 µM
C=CC1C[C@]1(NC(=O)[C@@H]1C[C@@H](Oc2cc(-c3ccccc3)nc3cc(OC)ccc23)CN1C(=O)[C@@H](NC(=O)OC(C)(C)C)C(C)(C)C)C(=O)NS(=O)(=O)c1c(C)noc1C | EC50 | Huh7 | BMS | - | - | 0.1–1 µM
CC(C)(C)C(=O)OCOP(=O)(CC[C@H]1O[C@@H](n2ccc(=O)[nH]c2=O)[C@](C)(F)[C@@H]1O)OCOC(=O)C(C)(C)C | EC90 | Huh7 | - | PCR | - | >10 µM
CCOc1nc(N)nc2ncc(-c3ccc(S(C)(=O)=O)cc3)nc12 | EC50 | Huh7 | - | - | - | 1–10 µM
C=CC1C[C@]1(NC(=O)[C@@H]1C[C@@H](Oc2cc(-c3ccccc3)nc3cc(OC)ccc23)CN1C(=O)[C@@H](NC(=O)OC(C)(C)C)C(C)(C)C)C(=O)NS(=O)(=O)c1nc2ccc(OCC)cc2s1 | EC50 | Huh7 | BMS | - | - | 1–10 µM

Again, the opening 4 rows:

smiles	endpoint	cells	strain	read by	conditions	value
C=CC1C[C@]1(NC(=O)[C@@H]1C[C@@H](Oc2cc(-c3ccccc3)nc3cc(OC)ccc23)CN1C(=O)[C@@H](NC(=O)OC(C)(C)C)C(C)(C)C)C(=O)NS(=O)(=O)c1cc(Cl)c(Br)s1	EC50	Huh7	BMS	-	-	0.1–1 µM
CNC(=O)c1c(-c2ccc(F)cc2)oc2cc(-c3cc(COC)on3)c(OC(C)C)cc12	EC50	Huh7	-	replicon	-	<1 µM
Nc1nc(Cl)nc2c1ncn2[C@H]1O[C@H](CO)[C@@H](F)[C@@H]1F	EC90	Huh7	-	replicon	-	>10 µM
CCCCCCCCCCCC(=O)OC[C@@]1(N=[N+]=[N-])O[C@@H](n2ccc(N)nc2=O)[C@@H](O)[C@@H]1O	EC50	Huh7	-	luciferase	-	0.619 µM